The values below are quoted from earlier work in patent publication US9227852B2, “Apparatus, systems, and methods for water treatment” (McWong Environmental Technology, priority 2008, dated 2016).

The conditions of the data set: concentration at which the average person detects the odor; cited from earlier work.

On to `CC1(C)[C@@H]2CC[C@@]1(C)[C@](C)(O)C2` [2-methylisoborneol (MIB), 2-methylisoborneol], for which the Odor threshold is listed as 9 ng/L.
As for `CC1CCCC2(C)CCCCC12O` (centres unmarked) [Geosmin], the Odor threshold is 4 ng/L.
